Source: PubChem BioAssay AID504761 (Drosophila RNAi Screening Center, 2011)
Purpose: 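Genome-wide fly cell screen for genes dengue virus requires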 (primary screen). Cells: D.Mel-2 cells from Drosophila. Reagent: long dsRNA against Drosophila genes. Treatment: infection with dengue virus type 2; dose and infection time not stated. Measurement: 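Per well on two replicate plates, imaging gave the percent of cells positive for viral envelope protein, ranked by infection, and a nuclear count of cells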. Direction: infection score: higher = more virus-infected cells; cell count: higher = more cells in the well. Active means: 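Low infection ranks in the two replicates (chance level up to 0.065) followed by a retest with a 1.5-fold or larger significant decrease, p below 0.05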. Calls: active = confirmed: knock-down lowers infection; inactive = not picked or not confirmed.
The deposit covers about 22,000 reagents; below is a random part of those with a known target gene and a result. Over the whole deposit, 116 (0.52%) are marked active. 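Calls depend on retest data that are not deposited; infection was ranked per plate without normalising between plates; the unit of the infection score is not given.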 Raw values are not corrected between plates. Entries without a mark were called inactive. Reagent sequences are not shown. Not given: the amount of reagent, the time to read-out.

Gene	DRSC id	infection score, replicate 1	infection score, replicate 2	cell count, replicate 1	cell count, replicate 2
g (garnet)	DRSC20335	28.1	20.3	4646	2191
g (garnet)	DRSC26118	8.48	5.23	5153	5542
Rab6	DRSC03404	6.72	7.87	6671	6454
Rab6	DRSC25636	18.9	2.79	6477	6906
CG6108 (retired record)	DRSC02929	4.87	6.82	6818	6916
mthl7 (methuselah-like 7)	DRSC10852	2.71	1.29	6045	6596
CG8888	DRSC07294	17.3	8.77	5611	5860
CG8888	DRSC07295	8.26	11.7	5680	6766
Chsy (Chondroitin sulfate synthase)	DRSC20175	8.9	8.37	5761	5829
Chsy (Chondroitin sulfate synthase)	DRSC20176	3.01	1.97	6051	6254
CREG (Cellular Repressor of E1A-stimulated Genes)	DRSC16595	2.89	3.07	6097	5986
CG10467	DRSC09728	3.65	4.68	5868	5427
CG34428	DRSC10119	1.55	3.06	6575	6041
bora (aurora borealis)	DRSC10744	9.62	4.76	4668	5904
CG5805	DRSC15878	23.8	14.7	5606	7069
CG5805	DRSC24253	1.08	8.51	6854	6542
CG13630	DRSC14631	2.78	4.93	6654	6288
Ca-alpha1D (Ca[2+]-channel protein alpha[[1]] subunit D)	DRSC03284	17.1	8.88	6518	6396
Muc55B (Mucin 55B)	DRSC21440	8.27	12.6	5867	6815
Muc55B (Mucin 55B)	DRSC27913	28.1	10.5	6654	5960
CG15412	DRSC00427	3.07	2.56	6585	6494
CG15717	DRSC19684	1.62	1.61	6563	6511
CG16852	DRSC01876	4.29	5.03	6741	7103
vig (vasa intronic gene)	DRSC03630	6.47	1.97	6120	6280
vig (vasa intronic gene)	DRSC21672	1.24	3.9	6637	6957
CG4282	DRSC06865	7.04	10.1	6446	6390
IntS1 (Integrator 1)	DRSC04343	7.15	16.9	4616	4031
IntS1 (Integrator 1)	DRSC27942	2.18	6.57	780	3546
Gp150	DRSC04618	0.95	2.3	6741	6969
Gp150	DRSC29033		12.5	316	1575
CG1407	DRSC29339	29.9		6195	430
CG13983	DRSC02315	6.27	2.81	5387	6447
CG13983	DRSC28917	3.57	3.44	1177	494

In a second layout: entries from further up
Gene,DRSC id,"infection score, replicate 1","infection score, replicate 2","cell count, replicate 1","cell count, replicate 2"
CG10467,DRSC09728,3.65,4.68,5868,5427
CG34428,DRSC10119,1.55,3.06,6575,6041
bora (aurora borealis),DRSC10744,9.62,4.76,4668,5904
CG5805,DRSC15878,23.8,14.7,5606,7069
CG5805,DRSC24253,1.08,8.51,6854,6542
CG13630,DRSC14631,2.78,4.93,6654,6288

The listing continues:
Gene	DRSC id	infection score, replicate 1	infection score, replicate 2	cell count, replicate 1	cell count, replicate 2
GPHR (Golgi pH Regulator)	DRSC07075	9.9	5.97	6139	6504
Drs (Drosomycin)	DRSC08657	1.74	5.86	5575	5824
Drs (Drosomycin)	DRSC27852	3.98	34.7	5751	4939
CG11883	DRSC06094	18.6	17	6088	6171
Fpgs1 (Folylpolyglutamate synthase 1)	DRSC19857	17.6	21.9	5349	6241
Fpgs1 (Folylpolyglutamate synthase 1)	DRSC25579	5.7	2.84	6089	5624
Jhbp7 (Juvenile hormone binding protein 7)	DRSC14408	2.47	4.54	6430	6649
Jhbp7 (Juvenile hormone binding protein 7)	DRSC25905	1.93	5.8	6430	6656
barc (barricade)	DRSC11792	22.9	16.8	2723	5017
Max	DRSC11218	2.11	12.3	6667	6562
Ahcy (Adenosylhomocysteinase)	DRSC19329	5.45	2.1	5486	5844
Ahcy (Adenosylhomocysteinase)	DRSC27304	18.4	5.56	5925	5949
Der-1 (Derlin-1)	DRSC00301	1.19	8.18	5949	6531
CG42534	DRSC16072	3.22	3.56	5993	6519
CG42534	DRSC23131	3.2	6.17	6753	7097
CG42534	DRSC23246	0.99	3.71	7138	7203
CG42534	DRSC26096	4.54	3.7	5837	5617
CG13218	DRSC06340	19.3	2.38	5696	6807
CG13218	DRSC26951	6.79	4.69	6351	6252
CG5167	DRSC15728	7.71	20.6	6695	5989
CG7029	DRSC16177	2.18	7.85	6592	6347
CG7029	DRSC23898	5.31	9.76	6106	5279
FipoQ (F-box involved in polyQ pathogenesis)	DRSC15413	6.85	3.79	6092	6063
FipoQ (F-box involved in polyQ pathogenesis)	DRSC24515	1.43	4.97	701	5850
CG42238	DRSC03180	8.04	31.8	6316	5036
